Values from PubChem BioAssay AID624099 (ICCB-Longwood, 2012)

Aim: 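Knock-downs relieving repression by E2 of an HPV18 LCR luciferase reporter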 (primary screen)
Cell system: human C33A cervical carcinoma cells (HPV-negative) stably expressing BPV1 E2 and an HPV18 LCR luciferase reporter
Reagents: siRNA pool against human genes, 40 nM
Time to read-out: 72 h
Measured: 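HPV18 LCR reporter light per well, converted to plate-wise z-scores that exclude control wells, and averaged over triplicate plates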
Reading the numbers: mean z-score and z-score: higher = stronger reporter signal, weaker E2 silencing
Active means: 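Mean z ≥ 2 together with z ≥ 2 in two or more of the three replicates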
The deposit covers about 21,000 reagents; this is a part drawn at random. Of all reagents, 497 (2.4%) were called active. 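Higher z means weaker E2 silencing; only reporter increases were scored, and knock-downs that hurt cell survival may mask genuine repressor factors.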 A number with no mark means an inactive call.

After knock-down of GPR137 (G protein-coupled receptor 137) the results were mean z-score 0.53; z-score, replicate A = 1.38; z-score, replicate B = 0.47; z-score, replicate C = -0.27.
With knock-down of FBP2 (fructose-bisphosphatase 2), the screen gave mean z-score -1.75; z-score, replicate A = -1.62; z-score, replicate B = -1.68; z-score, replicate C = -1.94.
PGLYRP4 (peptidoglycan recognition protein 4) gave mean z-score -0.67; z-score, replicate A = -0.96; z-score, replicate B = -0.51; z-score, replicate C = -0.56.
With knock-down of POGLUT3 (protein O-glucosyltransferase 3) the results were mean z-score 0.58; z-score, replicate A = 0.49; z-score, replicate B = 0.64; z-score, replicate C = 0.59.
Silencing of GNAI2P2 (G protein subunit alpha i2 pseudogene 2) came out at: mean z-score -0.24; z-score, replicate A = -0.58; z-score, replicate B = 0.02; z-score, replicate C = -0.16.
ZNF77 (zinc finger protein 77) scored mean z-score 0.64; z-score, replicate A = 0.63; z-score, replicate B = 0.97; z-score, replicate C = 0.32.
Knock-down of ALOX12B (arachidonate 12-lipoxygenase, 12R type) resulted in: mean z-score -1.23; z-score, replicate A = -1.36; z-score, replicate B = -1.17; z-score, replicate C = -1.16.
LSG1 (large 60S subunit nuclear export GTPase 1) gave mean z-score -0.36; z-score, replicate A = -0.34; z-score, replicate B = -0.73; z-score, replicate C = -0.03.
Depletion of UBTFL2 (UBTF like 2 (pseudogene)) resulted in: mean z-score 1.12; z-score, replicate A = 1.19; z-score, replicate B = 0.85; z-score, replicate C = 1.31.
Knock-down of NEK5 (NIMA related kinase 5) gave: mean z-score 0.49; z-score, replicate A = 0.28; z-score, replicate B = 0.52; z-score, replicate C = 0.66.
Silencing of RPL27AP6 (ribosomal protein L27a pseudogene 6) resulted in: mean z-score -4.29; z-score, replicate A = -4.18; z-score, replicate B = -4.14; z-score, replicate C = -4.56.
For PLEKHA6 (pleckstrin homology domain containing A6) the deposit lists mean z-score -1.51; z-score, replicate A = -1.7; z-score, replicate B = -1.56; z-score, replicate C = -1.26.
For FHL1 (four and a half LIM domains 1), the entry reads mean z-score -1.34; z-score, replicate A = -1.38; z-score, replicate B = -1.32; z-score, replicate C = -1.31.
Against ASCL3 (achaete-scute family bHLH transcription factor 3), the entry reads mean z-score 0.19; z-score, replicate A = -0.04; z-score, replicate B = 0.09; z-score, replicate C = 0.51.

2 entries from above, limited to “z-score, replicate C”.
ALOX12B (arachidonate 12-lipoxygenase, 12R type): -1.16
LSG1 (large 60S subunit nuclear export GTPase 1): -0.03
